{
  "source": "paper PMC11211474",
  "about": "“A broad neutralizing nanobody against SARS-CoV-2 engineered from an approved drug” (Cell Death & Disease, 2024)",
  "target": "SARS-CoV-2 RBD (319-531) (SARS-CoV-2, wild type (Wuhan-Hu-1, …, UniProt P0DTC2))",
  "experiment": "crystal structure",
  "conditions": "both partners purified",
  "data": [
    {"binder": "nanobody VHH60 (monomeric, without Fc) (VHH) VHH: EVQLVESGGGLVQPGGSLRLSCAASGRTFRVNLMGWFRQAPGKGRELVASINGFDDITYYPDSVEGRFTISRDNAKRMVYLQMNSLRAEDTAVYYCAAYDSDYDGRLFNYWGQGTQVTVSS", "values": [
      {"measurement": "binding result", "result": "binds"}
    ]}
  ]
}
